Measurements reported in article PMC9769707.

Biological target: T1, Dnr (Pseudomonas aeruginosa PAO1) (UniProt Q51441)
T1 sequence: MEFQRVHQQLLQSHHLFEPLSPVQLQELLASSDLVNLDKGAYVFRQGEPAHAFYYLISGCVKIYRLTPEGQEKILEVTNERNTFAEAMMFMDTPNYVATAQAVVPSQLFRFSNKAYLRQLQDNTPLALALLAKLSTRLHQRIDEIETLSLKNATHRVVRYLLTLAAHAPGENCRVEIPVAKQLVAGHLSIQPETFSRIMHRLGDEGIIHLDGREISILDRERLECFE
Experiment: EMSA
Conditions: recombinant protein; residues 1-227; protein details: N-terminal His6 (pET28a); probe letters rebuilt from the primers and the genome

Sequence	binding result
GGACCGCCCATCTCGATTAATTTCTCTAACAATTCCCGTGCCAGTCTTTTCGTGGCTCTTTTAATCAATCTCATTCAATGGCTTATTGTTATCCATGTCTCATTCTGAAAAGAAATATAACAAGTGAATTGAGCAAGAAGTTGCGCAGTGCTGTGCAACTTTTTGCGCAGTAGTGTTCAGGCCAGTATTTTCAAGGGCTGTGGACTGTTATTGGGGATGTTTCTTGGTTTTCATTGTGCAACTTCTTGCACAATCGCTATTACGCTCTAAATCAGCTGTTGGTCCGCTTGGAAGGCCTATGTTTCGAGGCTCTCCGGAGAAATCCATACTGCCTGCCTTATTTTTTATAAATTGTTAACTACCTGTTTTGGTAGGGTTTTCCAAATGGCCATCAATGTCGTTATGATGGCTATAGCCAAGCCGTAAAGGGCATGGACGCAGACGCCTGACGTTTGGCTGAAAATCTTTCATTGATTCGTATCAATGAATAGGAAAATTCCCAAAGAGGGAATGTCCTGTTGCTTGCCAGTTTTTATGTTGTTTTCATGGAAAAGGCAAAGAGCTCTTCAGACTATTGGGATTTTCGTTCGGTTTTTATGCCAACTAGTTGAATTGTTAAGATATTCATTGGCGCACATGGTGTGCATTGAAGGGTTAGGATGACCTATTCGAGCAAGCTCTCCTCGCAT (double strand) [hsiA2 promoter fragment]	binds
GGATACGTTCCTTGTCGTTGAAAGTGCCCAGGCGATATGCCGGGGGCATCGGTGCTAGACAAGAACCGTGCCACTAGTCTTGAAACTCTTTTCCATCAAGGCGTTATTGGGGGAAGCCAAAAATTCGCTGGCGATTCTCATGGGAAGAACACTGAAAATTGCGCAACTTTTTGCGCACCGCTTGCAAAAAGTTGCGCACTCTCTCGGAGCCCTTTGGGTATTTGTTCCCTAGCGTTCTATCCACAACGTTATCAACCAAAAAGTTGCACAGTTCTTCATTGGCAAGGTAGGCGAAGATAGCGCCGCACGGTTTCGTTCCATCGGCCCAGGGTGAAGGAAAGTGAGTTATCGGAGAGGTTGGGGGCTGAAAGATATGGCCAGTTATGGCCAAAAGCCCTCTATGGAGAGGGCTTTTGGGGTAGGGCCAGCAGGGTTGTTCTGCTGCGGGGAACCGGAGGTGCGGTTCTTAGCCTTTCGGCCAAGGC (double strand) [hcp2 promoter fragment]	binds
